Compound potency records, mixed from different reports. Data source: NIAID ChemDB in PubChem.

Shared fields: growth or infection tests; agent: Herpes simplex virus 2; measure: EC50

ECn is the concentration giving n% inhibition of infection, replication or growth.

smiles,strain or isolate,cells,method,result
COC(=O)CN(CC(=O)OC)P(=O)(OC[C@H]1O[C@@H](n2cnc3c(N)ccnc32)C[C@@H]1O)Oc1ccccc1,G,HEL,-,>100 µM
Nc1ncnc2c1ncn2C[C@@H](CO)OCP(=O)(O)O,PCV-resistant/B,HEL,cytopathic effect,0.025 µg/mL
O=c1[nH]c(=O)n([C@H]2C[C@H](O)[C@@H](CO)O2)c[c]1[Hg+].O[C@H](C[S-])[C@H](O)CS,HG-25,KB,virus yield,0.144 µg/mL
CNc1ncnc2c1ncn2[C@@H]1O[C@@H](CO)C[C@H]1F,-,VERO,-,>100 µM
N#Cc1cn([C@@H]2O[C@H](CO)[C@@H](O)[C@H]2O)c2ncnc(N)c12,G,PRK,cytopathic effect,≥0.04 µg/mL
CCO/N=C/c1ccc(OCCC2CCN(c3ccc(C)nn3)CC2)cc1,HGP,KB,neutral red,0.0008 µM
Nc1ncnc2c1ccn2[C@@H]1O[C@H](CO)[C@H](O)[C@H]1O,196,PRK,cytopathic effect,0.07 µg/mL
CC(C)(C)C(=O)OCOC(=O)CN(CC(=O)OCOC(=O)C(C)(C)C)P(=O)(OC[C@H]1O[C@@H](n2cnc3c(N)ccnc32)C[C@@H]1O)Oc1ccccc1,G,HEL,-,>20 µM
Nc1ncnc2c1ccn2[C@@H]1O[C@H](CO)[C@@H](O)[C@H]1O,G,PRK,cytopathic effect,0.1 µg/mL
O=c1[nH]c(=O)n([C@@H]2O[C@@H](CO)C[C@H]2F)cc1Cl,-,VERO,-,>40 µM
Nc1nccc2c1ncn2[C@H]1C[C@H](O)[C@@H](CO)O1,G,HEL,-,>100 µM
O=c1[nH]c(=O)n([C@H]2O[C@@H](CO)C[C@H]2F)cc1F,-,VERO,-,>100 µM
O=c1[nH]c(=O)n([C@H]2C[C@H](O)[C@@H](CO)O2)c[c]1[Hg+].OCC[S-],HG-25,KB,virus yield,0.394 µg/mL
O=c1[nH]c(=O)n([C@H]2O[C@@H](CO)C[C@H]2F)cc1Cl,-,VERO,-,>51 µM
Nc1nc2c(ncn2COCCO)c(=O)[nH]1,G,VERO,plaque count,9 µM
Nc1nc2c(ncn2COCCO)c(=O)[nH]1,G,HEL,-,0.4 µM
NC(=O)c1cn([C@H]2C[C@H](O)[C@@H](CO)O2)c2ncnc(N)c12,G,PRK,cytopathic effect,1 µg/mL
Nc1nc2c(ncn2CCC(CO)CO)c(=O)[nH]1,PCV-resistant/B,HEL,cytopathic effect,6.6 µg/mL
CC(C)(C)C(=O)OCOC(=O)CN(CC(=O)OCOC(=O)C(C)(C)C)P(=O)(OC[C@H]1O[C@@H](n2ccc3c(N)ncnc32)C[C@@H]1O)Oc1ccccc1,G,HEL,-,>100 µM

For reference, 3 entries again:

smiles,strain or isolate,cells,method,result
Nc1nc2c(ncn2COCCO)c(=O)[nH]1,G,VERO,plaque count,9 µM
O=c1[nH]c(=O)n([C@H]2C[C@H](O)[C@@H](CO)O2)c[c]1[Hg+].O[C@H](C[S-])[C@H](O)CS,HG-25,KB,virus yield,0.144 µg/mL
O=c1[nH]c(=O)n([C@H]2O[C@@H](CO)C[C@H]2F)cc1F,-,VERO,-,>100 µM

An empty or dashed field is not shown. Neighbouring rows are from separate reports.